This experiment concerns the target A/Australia/1997 G70C H1N9 NA (Influenza A virus, UniProt P03472). As to conditions: A/Australia/1997 G70C H1N9, 30° C., pH 7.6.

As a reminder, the Km is the concentration of substrate that gives half-maximal velocity. The kcat is the maximal rate divided by the concentration of active sites.

Take `CC(=O)NC1C(NC(=N)N)C(F)C(Oc2c(F)cc3c(C)cc(=O)oc3c2F)(C(=O)O)OC1[C@H](O)[C@H](O)CO` (stereo partly drawn) [compound 3, 5-Acetamido-4-guanidine-3-fluoro-3,4,5-trideoxy-2α-(4-methyl-6,8-difluoromethylumbelliferyl)-D-glycero-D-galactononulopyranosylnoic acid]: the Km turned out to be 218 µM and the kcat is 155.6 s⁻¹.

The values above are taken from patent US11639348B2, “Compositions and methods for neuraminidase detection and quantification” (priority 2018, dated 2023).
